Measured values as given in PubChem BioAssay AID588689 (Southern Research Specialized Biocontainment Screening …, 2011).
The list shows a part of the results. Potency and affinity values are given separately. Active and inactive are the calls of the source. Cut-off read from the data, not from the text of the source: inconclusive = inhibition above about 29% without an active follow-up result; inactive = below that.

Chains of the proteins cited; added tags and fusions are not shown.
UniProt P29991, whole entry: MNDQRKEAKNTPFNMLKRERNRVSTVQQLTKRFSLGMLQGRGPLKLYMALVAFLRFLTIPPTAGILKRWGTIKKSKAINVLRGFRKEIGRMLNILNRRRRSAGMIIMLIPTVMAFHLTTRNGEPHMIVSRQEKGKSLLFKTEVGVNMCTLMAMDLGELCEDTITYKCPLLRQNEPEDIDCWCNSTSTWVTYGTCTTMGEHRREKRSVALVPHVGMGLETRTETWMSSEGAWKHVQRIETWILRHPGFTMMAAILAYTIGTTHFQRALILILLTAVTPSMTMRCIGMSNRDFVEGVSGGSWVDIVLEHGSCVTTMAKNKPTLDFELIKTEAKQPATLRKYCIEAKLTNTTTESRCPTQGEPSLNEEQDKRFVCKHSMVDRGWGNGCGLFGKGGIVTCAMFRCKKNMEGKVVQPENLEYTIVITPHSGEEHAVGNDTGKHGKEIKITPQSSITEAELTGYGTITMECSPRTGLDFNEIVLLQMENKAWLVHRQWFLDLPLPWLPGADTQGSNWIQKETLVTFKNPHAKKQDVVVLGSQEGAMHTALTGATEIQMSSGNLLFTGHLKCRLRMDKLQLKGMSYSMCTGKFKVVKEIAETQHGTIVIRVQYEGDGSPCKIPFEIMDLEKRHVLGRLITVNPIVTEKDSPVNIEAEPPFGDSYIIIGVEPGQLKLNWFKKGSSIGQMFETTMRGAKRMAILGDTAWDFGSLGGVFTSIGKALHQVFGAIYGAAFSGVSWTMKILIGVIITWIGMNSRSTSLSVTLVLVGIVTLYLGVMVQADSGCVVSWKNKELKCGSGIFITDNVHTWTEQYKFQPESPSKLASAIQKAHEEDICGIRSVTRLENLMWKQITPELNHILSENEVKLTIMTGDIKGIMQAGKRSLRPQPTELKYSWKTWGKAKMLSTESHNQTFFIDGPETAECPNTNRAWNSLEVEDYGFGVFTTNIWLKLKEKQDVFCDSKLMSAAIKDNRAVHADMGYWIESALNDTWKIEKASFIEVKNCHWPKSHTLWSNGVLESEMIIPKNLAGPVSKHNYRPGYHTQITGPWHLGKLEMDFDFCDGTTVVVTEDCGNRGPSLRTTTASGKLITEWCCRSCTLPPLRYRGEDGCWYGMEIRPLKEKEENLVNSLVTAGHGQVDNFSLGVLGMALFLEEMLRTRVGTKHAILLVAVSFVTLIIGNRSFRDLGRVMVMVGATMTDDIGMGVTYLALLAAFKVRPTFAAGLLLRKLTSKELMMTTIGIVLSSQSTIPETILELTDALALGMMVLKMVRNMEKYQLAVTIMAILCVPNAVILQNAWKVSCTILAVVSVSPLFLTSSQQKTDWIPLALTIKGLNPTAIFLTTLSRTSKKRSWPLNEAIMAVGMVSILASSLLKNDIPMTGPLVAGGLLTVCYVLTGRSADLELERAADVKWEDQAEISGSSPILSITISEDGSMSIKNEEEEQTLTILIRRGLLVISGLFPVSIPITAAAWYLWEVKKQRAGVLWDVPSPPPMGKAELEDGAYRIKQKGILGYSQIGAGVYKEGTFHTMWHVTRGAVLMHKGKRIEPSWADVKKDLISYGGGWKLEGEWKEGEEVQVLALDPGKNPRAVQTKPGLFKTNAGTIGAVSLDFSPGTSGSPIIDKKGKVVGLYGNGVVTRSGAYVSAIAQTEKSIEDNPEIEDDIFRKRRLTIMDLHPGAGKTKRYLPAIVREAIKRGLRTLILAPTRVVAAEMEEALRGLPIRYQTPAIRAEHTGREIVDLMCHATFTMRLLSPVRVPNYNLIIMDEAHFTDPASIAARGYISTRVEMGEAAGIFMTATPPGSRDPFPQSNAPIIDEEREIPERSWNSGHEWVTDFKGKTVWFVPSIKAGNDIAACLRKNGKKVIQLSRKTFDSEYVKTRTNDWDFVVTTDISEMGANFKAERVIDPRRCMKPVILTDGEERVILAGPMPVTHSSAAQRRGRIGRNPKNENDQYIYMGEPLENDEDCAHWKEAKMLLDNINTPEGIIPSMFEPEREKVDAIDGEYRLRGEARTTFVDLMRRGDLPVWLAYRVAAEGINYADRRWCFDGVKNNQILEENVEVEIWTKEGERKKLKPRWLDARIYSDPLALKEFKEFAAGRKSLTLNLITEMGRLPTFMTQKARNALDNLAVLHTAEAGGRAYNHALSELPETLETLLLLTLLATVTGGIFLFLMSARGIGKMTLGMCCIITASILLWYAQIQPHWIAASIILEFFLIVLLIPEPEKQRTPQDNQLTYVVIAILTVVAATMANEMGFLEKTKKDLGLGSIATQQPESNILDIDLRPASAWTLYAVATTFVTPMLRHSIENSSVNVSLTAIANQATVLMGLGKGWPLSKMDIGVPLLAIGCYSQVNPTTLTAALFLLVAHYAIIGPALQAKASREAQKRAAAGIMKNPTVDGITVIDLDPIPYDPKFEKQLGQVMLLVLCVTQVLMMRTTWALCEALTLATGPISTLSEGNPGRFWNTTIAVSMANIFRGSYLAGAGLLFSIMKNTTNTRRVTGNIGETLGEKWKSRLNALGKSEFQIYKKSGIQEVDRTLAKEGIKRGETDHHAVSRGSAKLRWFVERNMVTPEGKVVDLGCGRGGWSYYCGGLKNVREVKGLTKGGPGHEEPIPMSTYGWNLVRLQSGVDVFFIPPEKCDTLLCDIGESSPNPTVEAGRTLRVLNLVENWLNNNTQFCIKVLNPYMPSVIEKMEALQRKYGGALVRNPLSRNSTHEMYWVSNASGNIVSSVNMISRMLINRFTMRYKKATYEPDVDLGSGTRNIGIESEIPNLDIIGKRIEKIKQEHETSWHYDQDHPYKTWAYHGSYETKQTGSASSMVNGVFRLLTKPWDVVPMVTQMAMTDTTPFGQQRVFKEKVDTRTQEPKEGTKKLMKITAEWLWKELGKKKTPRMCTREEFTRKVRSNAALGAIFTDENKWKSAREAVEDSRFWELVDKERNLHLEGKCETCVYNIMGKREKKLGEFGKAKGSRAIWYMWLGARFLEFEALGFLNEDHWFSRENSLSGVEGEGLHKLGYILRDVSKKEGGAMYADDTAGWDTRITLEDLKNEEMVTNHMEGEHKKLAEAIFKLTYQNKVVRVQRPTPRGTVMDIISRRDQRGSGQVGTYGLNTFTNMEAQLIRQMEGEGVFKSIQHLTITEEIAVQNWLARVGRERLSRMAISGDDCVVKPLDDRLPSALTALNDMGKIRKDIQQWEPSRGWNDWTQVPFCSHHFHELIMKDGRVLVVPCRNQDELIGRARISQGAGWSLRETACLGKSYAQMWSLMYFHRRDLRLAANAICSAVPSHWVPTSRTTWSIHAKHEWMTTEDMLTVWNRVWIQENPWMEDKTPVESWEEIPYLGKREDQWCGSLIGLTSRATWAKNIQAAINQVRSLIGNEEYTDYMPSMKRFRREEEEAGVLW

biological target: Genome polyprotein (Dengue virus type 2 (strain 16681-PDK53)) (UniProt P29991); assay: flavivirus cap methylation enzyme inhibition – biochemical, confirmation dose response, primary screen (AID 588689); conditions: Dengue-2 NS5 methyltransferase capping enzyme assay, at 25 µM, active compounds read high

Row | SMILES | inhibition
1 | CCOC(=O)N1CCC(Nc2cccc(C)c2)CC1 | inactive: 2.33%
2 | COc1cc(C(=O)NCC2(N(C)C)CCCCC2)ccc1OC(F)F | inactive: -9.45%
3 | CCOc1ccc(C)cc1CN(CCCl)CCCl | inactive: -4.62%
4 | O=C1CCN(Cc2ccccc2)CC1 | inactive: -5.07%
5 | O=P1(N(CCCl)CCCl)SCCCS1 | inactive: 4.03%
6 | CCCCOc1ccc(C(=O)NCC2(N3CCOCC3)CCCCC2)cc1 | inactive: -0.72%
7 | O=C(NCC1(N2CCCCC2)CCCCC1)c1ccc(F)cc1 | inactive: -2.2%
8 | COc1ccc(NC2CCN(CCc3ccccc3)CC2)c(OC)c1 | inactive: 5.67%
9 | CCOC(=O)N1CCC(Nc2ccc(F)cc2)CC1 | inactive: 1.96%
10 | O=C(NCC1(N2CCOCC2)CCCCC1)c1cc2ccccc2o1 | inactive: -1.61%
11 | O=C(NCC1(N2CCCCC2)CCCCC1)c1ccc(Cl)nc1 | inactive: -6.49%
12 | Cc1cc(C)cc(N(C(=O)c2ccccc2)C2CCN(C(=O)OC(C)(C)C)CC2)c1 | inactive: -3.92%
13 | CCOC(=O)N1CCC(Nc2ccc(OC)cc2)CC1 | inactive: -7.96%
14 | N#CC1(Nc2ccccc2)CCN(Cc2ccccc2)CC1 | inactive: -4.59%
15 | O=C(NCC1(N2CCCCC2)CCCCC1)c1ccc(Cl)s1 | inactive: -6.61%
16 | O=C(OC1CN2CCC1CC2)C1c2ccccc2Oc2ccccc21 (centres undefined) | inactive: 14.5%
17 | COc1ccc(Cl)cc1C(=O)NCC1(N2CCOCC2)CCCCC1 | inactive: 1.86%
18 | O=C(NCC1(N2CCCCC2)CCCCC1)c1ccc(=O)[nH]c1 | inactive: -4.51%
19 | O=C(NCC1(N2CCCCC2)CCCCC1)c1cccs1 | inactive: -12.3%
20 | COc1ccc(C(=O)NCC2(N3CCCCC3)CCCCC2)cc1 | inactive: -5.54%
21 | COc1ccc(C(=O)NCC2(N3CCCCC3)CCCCC2)c(OC)c1OC | inactive: -11.1%
22 | CC(C)(C)OC(=O)N1CCC(N(C(=O)c2ccccc2)c2ccc(F)cc2)CC1 | inactive: 2.04%
23 | CSc1ccccc1C(=O)NCC1(N2CCCCC2)CCCCC1 | inactive: 1.62%
24 | Cc1cccc(NC2(C#N)CCN(Cc3ccccc3)CC2)c1 | inactive: 4.78%
25 | CN1CCC(Nc2cccc(F)c2)CC1 | inactive: -10.5%
26 | O=C(NCC1(N2CCCCC2)CCCCC1)c1cncc(Br)c1 | inactive: 2.18%
27 | Cc1ccc(C(=O)NCC2(N(C)C)CCCCC2)o1 | inactive: -4.39%
28 | CCCOc1ccc(C(=O)NCC2(N(C)C)CCCCC2)cc1OC | inactive: -8.6%
29 | COc1ccc(CN(CCCl)CCCl)cc1Cl | inactive: -4.37%
